A mixed list of measured activities; the numbers were collected in NIAID ChemDB.

Shared fields: growth or infection tests

Inhibition is in % at the dose shown (toxicity tests: loss of growth or viability). Two numbers with a dash give a range or band. A number after MIC or MFC names an inhibition level or a share of isolates. ECn: concentration that inhibits the pathogen or its effect by n%. Zone: diameter of growth inhibition. Blank or dashed fields: not listed here. Conditions beyond the fields shown may differ between rows.

SMILES	organism	strain or isolate	measure	tested at	setting	method	value
Nc1ccc(C(=O)O)c(O)c1	Mycobacterium fortuitum	198 strains	EC50			agar	>2 µg/mL
NC[C@@H]1O[C@H](O[C@H]2[C@@H](O)[C@H](O[C@@H]3[C@@H](O)[C@H](N)C[C@H](N)[C@H]3O[C@H]3O[C@H](CO)[C@@H](O)[C@H](O)[C@H]3N)O[C@@H]2CO)[C@H](N)[C@@H](O)[C@@H]1O	Mycobacterium avium complex	SK47/HIV+	MIC				6.25 µg/mL
Nc1ccc(C(=O)O)c(O)c1	Mycobacterium avium	ATCC 25291	Median MIC				16 µg/mL
C#Cc1ccccc1	Mycobacterium bovis BCG	1173P2	MIC		48 h	resazurin	31.25 µg/mL
CN(C)[C@@H]1C(=O)C(C(N)=O)=C(O)[C@@]2(O)C(=O)C3=C(O)c4c(O)cccc4[C@@](C)(O)[C@H]3C[C@@H]12	Mycobacterium marinum	37 clinical isolates	MIC90				2 µg/mL
CC[C@H]1OC(=O)[C@H](C)[C@@H](O[C@H]2C[C@@](C)(OC)[C@@H](O)[C@H](C)O2)[C@H](C)[C@@H](O[C@@H]2O[C@H](C)C[C@H](N(C)C)[C@H]2O)[C@](C)(OC)C[C@@H](C)C(=O)[C@H](C)[C@@H](O)[C@]1(C)O	Mycobacterium avium	ATCC 25291	Median MIC				2 µg/mL
C[C@H]1COc2c(N3CCN(C)CC3)c(F)cc3c(=O)c(C(=O)O)cn1c23	Mycobacterium marinum	37 clinical isolates	MIC90				4 µg/mL
CC(C)(C)[Si](C)(C)ONC(=O)c1ccccc1	Mycobacterium vaccae	IMET 10670	MIC			resazurin	12.5 µM
CNC(=O)Nc1ccc(S(=O)(=O)Nc2cc(C)on2)cc1	Mycobacterium kansasii	235/80	MIC100		14 d	broth dilution / absorbance	62.5 µM
Cc1nn(-c2ccccc2)c2c1C(c1cn(-c3ccccc3)nc1-c1ccc(Cl)cc1)C1=C(NC(C)(c3cc(O)cc(O)c3)NC1=O)O2	Mycobacterium phlei	NCIM 2240	MIC			agar diffusion / agar	70 µg/mL
C#CCO	Mycobacterium bovis BCG	1173P2	MIC		48 h	resazurin	125 µg/mL
CN[C@@H]1[C@H](O[C@H]2[C@H](O[C@H]3[C@H](O)[C@@H](O)[C@H](N=C(N)N)[C@@H](O)[C@@H]3N=C(N)N)O[C@@H](C)[C@]2(O)C=O)O[C@@H](CO)[C@H](O)[C@H]1O	Mycobacterium avium complex	Isolate C-31	MIC				>400 µg/mL
Cc1nn(-c2ccccc2)c2c1C(c1cn(-c3ccccc3)nc1-c1ccc(Cl)cc1)C1=C(NC(C)(c3cc(O)c(Cl)c(O)c3)NC1=O)O2	Mycobacterium phlei	NCIM 2240	zone	1 mg/mL		agar diffusion / agar	6.5 mm
CCCN(CCC)C(=O)c1cc(C)cc(C(=O)N[C@@H](Cc2cc(F)cc(F)c2)[C@H](O)CNCc2cccc(I)c2)c1	Mycobacterium kansasii	262	zone	100 µg/disc		agar diffusion	14 mm
Cc1nn(-c2ccccc2)c2c1C(c1cn(-c3ccccc3)nc1-c1ccc(Cl)cc1)C1=C(NC(C)(c3cc(O)c(I)cc3Cl)NC1=O)O2	Mycobacterium phlei	NCIM 2240	zone	0.5 mg/mL		agar diffusion / agar	1.5 mm
Cc1cc(NS(=O)(=O)c2ccc(NC(=O)N3CCC3)cc2)no1	Mycobacterium kansasii	6509/96 clinical isolate	MIC100		7 d	broth dilution / absorbance	8 µM
CC(C)CC(=O)OC(=O)CC(C)C	Mycobacterium bovis BCG	1173P2	MIC		24 h	resazurin	125 µg/mL
CN[C@@H]1[C@H](O[C@H]2[C@H](O[C@H]3[C@H](O)[C@@H](O)[C@H](N=C(N)N)[C@@H](O)[C@@H]3N=C(N)N)O[C@@H](C)[C@]2(O)C=O)O[C@@H](CO)[C@H](O)[C@H]1O	Mycobacterium avium	ATCC 25291	Median MIC				1.13 µg/mL
NNC(=O)c1ccncc1	Mycobacterium kansasii	6509/96 clinical isolate	MIC100		14 d	broth dilution / absorbance	8 µM
C[C@H]1COC2(CCN(c3nc(=O)c4cc(C(F)(F)F)cc([N+](=O)[O-])c4s3)CC2)O1	Mycobacterium vaccae	IMET 10670	MIC			broth dilution / turbidity	0.002 µg/mL
CN[C@@H]1[C@@H](O)[C@@H](O[C@@H]2[C@@H](O)[C@H](O[C@H]3O[C@H](CN)CC[C@H]3N)[C@@H](N)C[C@H]2N)OC[C@]1(C)O	Mycobacterium avium complex	20 strains	inhibition	4 µg/mL		agar	65%
CO[C@H]1/C=C/O[C@@]2(C)Oc3c(C)c(O)c4c(O)c(c(/C=N/N5CCN(C)CC5)c(O)c4c3C2=O)NC(=O)/C(C)=C\C=C\[C@H](C)[C@H](O)[C@@H](C)[C@@H](O)[C@@H](C)[C@H](OC(C)=O)[C@@H]1C	Mycobacterium avium	ATCC 25291	Mean MIC				>8.5 µg/mL
O=C(O)c1cn(-c2ccc(F)cc2)c2cc(N3CCNCC3)c(F)cc2c1=O	Mycobacterium avium complex	14 strains	MIC50				4 µg/mL
CC(C)(C)n1cc(C(=O)O)c(=O)c2cc(F)c(N3CCC(N)C3)nc21	Mycobacterium fortuitum	ATCC 6841	MIC				≤0.03 µg/mL
COc1c(N2CC(C)NC(C)C2)c(F)cc2c(=O)c(C(=O)O)cn(C3CC3)c12	Mycobacterium avium complex	14 strains	MIC50				0.5 µg/mL
O=C(NO)c1ccc(Cl)cc1	Mycobacterium luteus	ATCC 10240	zone	2000 µM		agar diffusion / agar	0 mm
CCOC(=O)C#Cc1ccccc1	Mycobacterium bovis BCG	1173P2	MIC		48 h	resazurin	7.75 µg/mL
NNC(=O)c1ccncc1	Mycobacterium avium	ATCC 25291	Median MIC				>32 µg/mL
CCCN(CCC)C(=O)c1cc(C)cc(C(=O)N[C@@H](Cc2ccccc2)[C@H](O)CNCc2cccc(I)c2)c1	Mycobacterium kansasii	ATCC 35775	zone	100 µg/disc		agar diffusion	24 mm
CCCCCNC(=O)Nc1ccc(S(=O)(=O)Nc2cc(C)on2)cc1	Mycobacterium kansasii	235/80	MIC100		14 d	broth dilution / absorbance	250 µM
CCN1CCN(c2cc3c(cc2F)c(=O)c(C(=O)O)cn3C(C)(C)C)CC1	Mycobacterium avium complex	14 strains	MIC50				0.5 µg/mL
NC(=O)c1cnccn1	Mycobacterium fortuitum	198 strains	inhibition	25 µg/mL		agar	<1%
CCC1CN(c2cc3c(cc2F)c(=O)c(C(=O)O)cn3CC)CCN1	Mycobacterium avium complex	14 strains	MIC50				≥32 µg/mL
CCCc1c2c([nH]c(=O)c1C)C(=O)c1[nH]c(=O)c(C)c(CCC)c1C2=O	Mycobacterium chelonae	ATCC 35752	MIC90			resazurin / fluorescence	>7.5 µg/mL
CC(C)N=c1cc2n(-c3ccc(Cl)cc3)c3ccccc3nc-2cc1Nc1ccc(Cl)cc1	Mycobacterium avium complex	541/HIV+	MIC				0.25 µg/mL
O=C(NOCc1ccccc1)c1cc([N+](=O)[O-])cc(C(F)(F)F)c1	Mycobacterium luteus	ATCC 10240	zone	2000 µM		agar diffusion / agar	14–20 mm
CN(C)c1ccc(O)c2c1C[C@H]1C[C@H]3[C@H](N(C)C)C(=O)C(C(N)=O)=C(O)[C@@]3(O)C(=O)C1=C2O	Mycobacterium marinum	37 clinical isolates	MIC90				2 µg/mL
NNC(=O)c1ccncc1	Mycobacterium aurum	A+	EC90				0.03 µg/mL
O=C(N[C@@H]([C@@H](O)CNCc1cccc(I)c1)C(F)(F)c1ccccc1)OCc1ccccc1	Mycobacterium kansasii	P	MIC			broth dilution	32 µg/mL
C#CC(=O)OC	Mycobacterium bovis BCG	1173P2	MIC		24 h	resazurin	3.87 µg/mL
CC1CN(c2cc3c(cc2F)c(=O)c(C(=O)O)cn3C(C)(C)C)CCN1	Mycobacterium fortuitum	ATCC 6841	MIC				0.03 µg/mL
COc1ccc(-c2nn(-c3ccccc3)cc2C2C3=C(NC(C)(c4cc(O)c(I)cc4Cl)NC3=O)Oc3c2c(C)nn3-c2ccccc2)cc1	Mycobacterium phlei	NCIM 2240	MIC			agar diffusion / agar	70 µg/mL
CN(C)c1cc(NC(=O)CNC(C)(C)C)c(O)c2c1C[C@H]1C[C@H]3[C@H](N(C)C)C(=O)C(C(N)=O)=C(O)[C@@]3(O)C(=O)C1=C2O	Mycobacterium abscessus	X40	MIC			broth dilution	1 µg/mL
C[C@@H]1CN(c2c(F)c(N)c3c(=O)c(C(=O)O)cn(C4CC4)c3c2F)C[C@H](C)N1	Mycobacterium avium complex	4	MIC			broth dilution	≤0.06 µg/mL
CNCC1CCN(c2c(F)cc3c(=O)c(C(=O)O)cn(C4CC4)c3c2F)C1	Mycobacterium fortuitum	ATCC 6841	MIC				0.06 µg/mL
CN[C@@H]1[C@@H](O)[C@@H](O[C@@H]2[C@@H](O)[C@H](O[C@H]3O[C@H](CN)CC[C@H]3N)[C@@H](N)C[C@H]2N)OC[C@]1(C)O	Mycobacterium avium	ATCC 25291	Mean MIC				9.3 µg/mL
C#CCOC(C)=O	Mycobacterium bovis BCG	1173P2	MIC		24 h	resazurin	125 µg/mL
CO[C@H]1/C=C/O[C@@]2(C)Oc3c(C)c(O)c4c(O)c(c(/C=N/N5CCN(C)CC5)c(O)c4c3C2=O)NC(=O)/C(C)=C\C=C\[C@H](C)[C@H](O)[C@@H](C)[C@@H](O)[C@@H](C)[C@H](OC(C)=O)[C@@H]1C	Mycobacterium avium intracellulare	Serovar 8	inhibition	2.5 µg/mL			63%
C#CCOC(=O)CCCCCC	Mycobacterium bovis BCG	1173P2	MIC		24 h	resazurin	125 µg/mL
C[C@@H]1CN(c2nc3c(cc2F)c(=O)c(C(=O)O)cn3C(C)(C)C)C[C@H](C)N1	Mycobacterium fortuitum	ATCC 6841	MIC				0.03 µg/mL
Cc1ccc(-n2cc(C(=O)O)c(=O)c3cc(F)c(N4CC(C)NC(C)C4)cc32)c(C)c1	Mycobacterium avium complex	14 strains	MIC50				≥32 µg/mL
CCn1cc(C(=O)O)c(=O)c2cc(F)c(N3CCNCC3)nc21	Mycobacterium fortuitum	ATCC 6841	MIC				0.4 µg/mL
CC(C)=CCC/C(C)=C/CNCCNC1C2CC3CC(C2)CC1C3	Mycobacterium kansasii	262	zone	100 µg/disc		agar diffusion	54 mm
O=C(O)c1cn(C2CC2)c2c(Br)c(N3CCNCC3)c(F)cc2c1=O	Mycobacterium fortuitum	ATCC 6841	MIC				≤0.03 µg/mL
CC(C)N1CCN(c2cc3c(cc2F)c(=O)c(C(=O)O)cn3-c2ccc(F)cc2F)CC1	Mycobacterium avium complex	14 strains	MIC50				8 µg/mL
CC1CN(c2c(F)cc3c(=O)c(C(=O)O)cn(C4CC4)c3c2Br)CC(C)N1	Mycobacterium fortuitum	ATCC 6841	MIC				0.06 µg/mL
CC(C)N=c1cc2n(-c3ccc(Cl)cc3)c3ccccc3nc-2cc1Nc1ccc(Cl)cc1	Mycobacterium abscessus	103	MIC90			resazurin	1.3 µM
O=C(N[C@H]([C@H](O)CNCc1cccc(I)c1)C(F)(F)c1ccccc1)OCc1ccccc1	Mycobacterium kansasii	262	zone	50 µg/disc		agar diffusion	11 mm
CO[C@H]1/C=C/O[C@@]2(C)Oc3c(C)c(O)c4c(O)c(c(/C=N/N5CCN(C)CC5)c(O)c4c3C2=O)NC(=O)/C(C)=C\C=C\[C@H](C)[C@H](O)[C@@H](C)[C@@H](O)[C@@H](C)[C@H](OC(C)=O)[C@@H]1C	Mycobacterium avium intracellulare	20 isolates	MIC50				1 µg/mL
NCC[C@H](O)C(=O)N[C@@H]1C[C@H](N)[C@@H](O[C@H]2O[C@H](CN)[C@@H](O)[C@H](O)[C@H]2O)[C@H](O)[C@H]1O[C@H]1O[C@H](CO)[C@@H](O)[C@H](N)[C@H]1O	Mycobacterium avium	ATCC 25291	Mean MIC				6.25 µg/mL
CCCCNC(=O)Nc1ccc(S(=O)(=O)Nc2cc(C)on2)cc1	Mycobacterium kansasii	6509/96 clinical isolate	MIC100		21 d	broth dilution / absorbance	500 µM
COc1c(N2CCC(N)C2)c(F)cc2c(=O)c(C(=O)O)cn(C3CC3)c12	Mycobacterium fortuitum	ATCC 6841	MIC				0.06 µg/mL
CCc1cc(C(N)=S)ccn1	Mycobacterium avium	ATCC 25291	Median MIC				2.65 µg/mL
O=C(NO)c1ccc([N+](=O)[O-])cc1	Mycobacterium luteus	ATCC 10240	zone	2000 µM		agar diffusion / agar	0 mm

Repeating the first 7 entries:

{"SMILES": "Nc1ccc(C(=O)O)c(O)c1", "organism": "Mycobacterium fortuitum", "strain or isolate": "198 strains", "measure": "EC50", "method": "agar", "value": ">2 µg/mL"}
{"SMILES": "NC[C@@H]1O[C@H](O[C@H]2[C@@H](O)[C@H](O[C@@H]3[C@@H](O)[C@H](N)C[C@H](N)[C@H]3O[C@H]3O[C@H](CO)[C@@H](O)[C@H](O)[C@H]3N)O[C@@H]2CO)[C@H](N)[C@@H](O)[C@@H]1O", "organism": "Mycobacterium avium complex", "strain or isolate": "SK47/HIV+", "measure": "MIC", "value": "6.25 µg/mL"}
{"SMILES": "Nc1ccc(C(=O)O)c(O)c1", "organism": "Mycobacterium avium", "strain or isolate": "ATCC 25291", "measure": "Median MIC", "value": "16 µg/mL"}
{"SMILES": "C#Cc1ccccc1", "organism": "Mycobacterium bovis BCG", "strain or isolate": "1173P2", "measure": "MIC", "setting": "48 h", "method": "resazurin", "value": "31.25 µg/mL"}
{"SMILES": "CN(C)[C@@H]1C(=O)C(C(N)=O)=C(O)[C@@]2(O)C(=O)C3=C(O)c4c(O)cccc4[C@@](C)(O)[C@H]3C[C@@H]12", "organism": "Mycobacterium marinum", "strain or isolate": "37 clinical isolates", "measure": "MIC90", "value": "2 µg/mL"}
{"SMILES": "CC[C@H]1OC(=O)[C@H](C)[C@@H](O[C@H]2C[C@@](C)(OC)[C@@H](O)[C@H](C)O2)[C@H](C)[C@@H](O[C@@H]2O[C@H](C)C[C@H](N(C)C)[C@H]2O)[C@](C)(OC)C[C@@H](C)C(=O)[C@H](C)[C@@H](O)[C@]1(C)O", "organism": "Mycobacterium avium", "strain or isolate": "ATCC 25291", "measure": "Median MIC", "value": "2 µg/mL"}
{"SMILES": "C[C@H]1COc2c(N3CCN(C)CC3)c(F)cc3c(=O)c(C(=O)O)cn1c23", "organism": "Mycobacterium marinum", "strain or isolate": "37 clinical isolates", "measure": "MIC90", "value": "4 µg/mL"}